Pooled drug test results. Numbers come from NIAID ChemDB, via PubChem.

All rows: toxicity to cultured cells; cell line: CEM; read-out: CC50

a–b is a range or a potency band.

SMILES | method | value
CC(C)(C)OC(=O)N[C@@H](Cc1ccccc1)[C@H](O)CNC[C@@H](O)[C@H](Cc1ccccc1)NC(=O)OC(C)(C)CCCO |  | >10 µM
Cc1cn([C@H]2C[C@H](N=[N+]=[N-])[C@@H](CN3C(=O)c4c(Cl)c(Cl)c(Cl)c(Cl)c4C3=O)O2)c(=O)[nH]c1=O |  | >80 µM
CN(C)[C@@H]1C(=O)C(C(N)=O)=C(O)[C@@]2(O)C(=O)C3=C(O)c4c(O)cccc4[C@@](C)(O)[C@H]3C[C@@H]12 |  | >40.5 µM
C[C@H](Cn1cnc2c(N)ncnc21)OCP(=O)(O)O |  | ≥500 µM
CCOCn1c(Cc2ccccc2)c(C(C)C)c(=O)[nH]c1=O |  | ≥20 µg/mL
Nc1nc2c(ncn2[C@H]2C=C[C@@H](CO)O2)c(=O)o1 | MTT | 300 µg/mL
O=C1CSC(c2c(F)cccc2F)N1c1ccc(Cl)cn1 | MTT | 47.1 µM
Cc1cn(COC(CO)CN=[N+]=[N-])c(=O)[nH]c1=O |  | 0.05–100 µM
CC(C)(CO)OC(=O)N[C@@H](Cc1ccccc1)[C@H](O)CNC[C@@H](O)[C@H](Cc1ccccc1)NC(=O)OC(C)(C)CO |  | >10 µM
O=c1[nH]cc(C2C=CC(CO)(CO)C2)c(=O)[nH]1 | XTT | >100 µM
FCC1CO1 |  | 0.05–100 µM
COC(=O)[C@H](CCCCN)NP(=O)(OC[C@H]1C=C[C@@H](n2cnc3c(N)ncnc32)C1)Oc1ccccc1 | trypan blue | >250 µM
Cc1ccc(NC(=O)c2ccccc2SSc2ccccc2C(=O)Nc2ccc(C)cc2)cc1 |  | 28 µM
CN(C)C1C(=O)C(C(=O)NCNC(CO)(CO)CO)=C(O)C2(O)C(=O)C3=C(O)c4c(O)cccc4C(C)(O)C3CC12 |  | >133 µM
Cc1cc(S(=O)(=O)Nc2nc(N)n(C)n2)c(S)cc1Cl |  | >200 µM
CC(C)(C)OC(=O)N[C@@H](Cc1ccccc1)[C@H](O)CNC[C@@H](O)[C@H](Cc1ccccc1)NC(=O)OC(C)(C)CO |  | >10 µM
CCc1c(Cc2cc(C)cc(C)c2)n(COC/C=C/c2ccc(O)cc2)c(=O)[nH]c1=O |  | 32 µM
Cc1cc(S(N)(=O)=O)c(SCc2nc(N)nc(N(C)C)n2)cc1Cl |  | >200 µM
CN(C)C1C(=O)C(C(=O)NCNC(CCS(C)=O)C(=O)[O-])=C(O)C2(O)C(=O)C3=C(O)c4c(O)cccc4C(C)(O)C3CC12.[Na+] |  | >100 µM
C[C@@]1(CO)C=CC(c2c[nH]c(=O)[nH]c2=O)C1 | XTT | >100 µM
Nc1ccn([C@@H]2CO[C@H](CO)S2)c(=O)n1 |  | 103 µM
Nc1nc2c(ncn2[C@H]2CC[C@@H](CO)C2)c(=O)o1 | MTT | >500 µg/mL
Cc1cn([C@H]2C=C[C@@H](COP3(=O)OCc4cc(CCC(=O)O)ccc4O3)O2)c(=O)[nH]c1=O |  | 74 µM
C=CCO |  | 200 µM
Cc1cn([C@H]2C[C@H](F)[C@@H](CO)O2)c(=O)[nH]c1=O |  | 117 µM
Nc1nc2c(ncn2[C@H]2C[C@H](O)[C@@H](CO)O2)c(=O)o1 | MTT | >500 µg/mL
CC(=O)Oc1cc(S(=O)(=O)Nc2n[nH]c(Nc3ccc(C)cc3)n2)c(S)cc1Cl |  | >200 µM
CCOCn1c(Cc2ccccc2)c(C(C)C)c(=O)n(C(=O)c2ccc(OP(=O)(OCCSC(=O)C(C)(C)C)OC[C@@H]3C=C[C@H](n4cc(C)c(=O)[nH]c4=O)O3)cc2)c1=O |  | 32 µM
O=C1CSC(c2c(F)cccc2F)N1c1ccc(Br)cn1 | MTT | 45.8 µM
Nc1ccn([C@H]2CC[C@@H](CO)O2)c(=O)n1 |  | 1.8 µM
O=c1[nH]c(=O)n([C@H]2C[C@H](F)[C@@H](CO)O2)cc1/C(Cl)=C/I |  | 33.1 µM
Cc1occc1C(=S)Nc1ccc(Cl)c(C(=O)OC2CCCC2)c1 |  | 4.3 µg/mL
Cc1cn([C@H]2C[C@H](N=[N+]=[N-])[C@@H](CN3C(=O)c4ccccc4C3=O)O2)c(=O)[nH]c1=O |  | ≥230 µM
CCOCn1c(Cc2ccccc2)c(C(C)C)c(=O)[nH]c1=O |  | >100 µM
NS(=O)(=O)c1ccc(NC(=O)c2cccc(SSc3cccc(C(=O)Nc4ccc(S(N)(=O)=O)cc4)c3)c2)cc1 |  | >100 µM
Nc1ccn([C@@H]2CS[C@H](CO)O2)c(=O)n1 |  | >200 µM
O=S(=O)(Nc1nnc2n1-c1ccccc1CC2)c1ccc(F)cc1S |  | 109.3 µM
COC(=O)[C@@H]1CCCN1C(=O)CCc1ccc2c(c1)COP(=O)(OC[C@@H]1C=C[C@H](n3cc(C)c(=O)[nH]c3=O)O1)O2 |  | 182 µM
Cc1cn([C@H]2C=C[C@@H](CO[Si](C)(C)C(C)(C)C)O2)c(=O)n(CC(=O)O)c1=O |  | 185 µM
CN(C)[C@H]1C(=O)C(C(=O)NCN2CCN(C(=N)N=C(N)N)CC2)=C(O)[C@]2(O)C(=O)C3=C(O)c4c(O)cccc4[C@](C)(O)[C@@H]3C[C@H]12 |  | >0.3 µM
CC(C)=CCN1Cc2cccc3[nH]c(=S)n(c23)C[C@@H]1C |  | >174 µM
Fc1cccc(F)c1C1SCc2nc3ccccc3n21 | MTT | 50 µM
Cc1cn([C@@H]2O[C@H](CCC(C)C)C3(OS(=O)(=O)C=C3N)[C@H]2OC(=O)c2ccccc2)c(=O)[nH]c1=O | trypan blue | 27 µg/mL
O=C(Nc1ccc(Cl)cc1)c1ccccc1SSc1ccccc1C(=O)Nc1ccc(Cl)cc1 |  | 8 µM
CC(=O)O[C@H](C)[C@@H]1C2=C(C(=O)C[C@]1(C)O)C(=O)c1c(ccc(-c3ccc4c(c3O)C(=O)C3=C(C4=O)[C@@H]([C@@H](C)OC(C)=O)[C@@](C)(O)CC3=O)c1O)C2=O |  | >0.3 µM
Cc1cn([C@@H]2O[C@H](C)C3(OS(=O)(=O)C=C3N)[C@H]2O[Si](C)(C)C(C)(C)C)c(=O)[nH]c1=O | trypan blue | 96 µg/mL
C[C@]12CC[C@H](OS(=O)(=O)O)CC1=CC[C@@H]1[C@@H]2CC[C@]2(C)C(=O)CC[C@@H]12 | trypan blue | >1000 µM
Nc1nc(=O)n([C@@H]2C[Se][C@H](CO)O2)cc1F |  | >100 µM
Cc1cn([C@H]2C=C[C@@H](COP3(=O)OCc4cc(CCC(=O)NC(C)C(=O)O)ccc4O3)O2)c(=O)[nH]c1=O |  | 77 µM
Cc1occc1C(=S)Nc1ccc(Cl)c(/C=N/OC(C)(C)C)c1 |  | 5.8 µg/mL
CN(C(=O)c1ccccc1SSc1ccccc1C(=O)N(C)c1ccc(S(N)(=O)=O)cc1)c1ccc(S(N)(=O)=O)cc1 |  | >100 µM
C=CCOC(=O)CCCCCCCCC |  | 263 µM
NS(=O)(=O)c1ccc(Nc2c3ccccc3nc3c(C(=O)NC(CO)(CO)CO)cccc23)cc1 |  | >3.4 µM
Nc1ccn([C@H]2CO[C@@H](CO)S2)c(=O)n1 |  | >500 µM
CCCCn1cnnc1NS(=O)(=O)c1cc(C)c(Cl)cc1SCC(=O)O |  | >200 µM
Cc1cc(CO)c(O)c(-c2cc(C)cc(CO)c2O)c1 | trypan blue | 150 µM
Cc1cc(S(=O)(=O)Nc2nc(Nc3ccc(Cl)cc3)nn2C)c(S)cc1Cl |  | 67.6 µM
O=c1[nH]c(=O)n([C@H]2C[C@H](F)[C@@H](CO)O2)cc1/C(Br)=C/I |  | 31.6 µM
CC(C)(C)[Si](C)(C)OC[C@@H]1CC[C@H](n2cnc3c(=O)n(CC(=O)OCc4ccccc4)cnc32)O1 |  | 32.5 µM
CCc1c(Sc2ccccn2)n(COCc2ccccc2)c(=O)[nH]c1=O |  | 0.98 µM
CC(=O)OC(OC(C)=O)c1ccc2c(c1)COP(=O)(OC[C@@H]1C=C[C@H](n3cc(C)c(=O)[nH]c3=O)O1)O2 |  | 99 µM
Nc1ccn([C@H]2CC[C@@H](CO)O2)c(=O)n1 |  | >5.5 µM
Cc1cn([C@H]2C=C[C@@H](COP3(=O)OCc4cc(CCC(=O)OCOC(=O)C(C)C)ccc4O3)O2)c(=O)[nH]c1=O |  | 74 µM
[N-]=[N+]=N[C@H]1C[C@H](n2cc(/C(I)=C\I)c(=O)[nH]c2=O)O[C@@H]1CO |  | 30.7 µM
O=C(Nc1cc(C(F)(F)F)cc(C(F)(F)F)c1)c1ccccc1SSc1ccccc1C(=O)Nc1cc(C(F)(F)F)cc(C(F)(F)F)c1 |  | 3.6 µM
O=c1ccn([C@H]2C[C@H](F)[C@@H](CO)O2)c(=O)[nH]1 |  | >500 µM
Cc1cn([C@H]2C[C@H](N=[N+]=[N-])[C@@H](CN3C(=S)c4ccccc4C3=S)O2)c(=O)[nH]c1=O |  | 19 µM
Cc1cccc2c1OP(=O)(OC[C@@H]1C=C[C@H](n3cc(C)c(=O)[nH]c3=O)O1)OC2 |  | 32 µM
CN=C1CN=C(c2ccc[nH]2)c2cc(Cl)ccc2N1 |  | >40 µM
O=c1[nH]c(=O)n([C@H]2C[C@H](F)[C@@H](CO)O2)cc1Br |  | >500 µM
COC(=O)Cn1c(=O)c(C)cn([C@H]2C[C@H](N=[N+]=[N-])[C@@H](CO[Si](C)(C)C(C)(C)C)O2)c1=O |  | 10 µM
O/N=C1\C(=C\c2ccc3c(c2)OCCO3)CCCC1C(NO)c1ccc2c(c1)OCCO2 |  | >165 µM
Cc1cn([C@H]2C[C@H](N=[N+]=[N-])[C@@H](CN3C(=O)c4ccc([N+](=O)[O-])cc4C3=O)O2)c(=O)[nH]c1=O |  | >200 µM
NC(N)=NS(=O)(=O)c1ccc(Nc2c3ccccc3nc3c(C(=O)NC(CO)(CO)CO)cccc23)cc1 |  | >3.3 µM
Cc1cn([C@H]2C[C@H](N=[N+]=[N-])[C@@H](CN3C(=O)c4cc(Cl)c(Cl)cc4C3=O)O2)c(=O)[nH]c1=O |  | >200 µM
C[C@@]1(CO)C=CC(c2cnc(N)[nH]c2=O)C1 | XTT | >100 µM
Nc1ncnc2c1ncn2CCOCP(=O)(O)O |  | 64 µM
Cc1cc(S(=O)(=O)Nc2nnc3cnc4ccccc4n23)c(S)cc1Cl |  | >200 µM
CC(C)(C)OC(=O)N[C@@H](Cc1ccccc1)[C@H](O)CNC[C@@H](O)[C@H](Cc1ccccc1)NC(=O)OC(C)(C)CCO |  | >10 µM
Cc1cn([C@@H]2O[C@H](CO[Si](C)(C)C(C)(C)C)[C@@H](O)[C@H]2O[Si](C)(C)C(C)(C)C)c(=O)n(CC(=O)ON)c1=O |  | 4.7 µM
[N-]=[N+]=N[C@H]1C[C@H](n2cc(/C(Cl)=C\I)c(=O)[nH]c2=O)O[C@@H]1CO |  | 48.1 µM
COCC(C)(C)OC(=O)N[C@@H](Cc1ccccc1)[C@H](O)CNC[C@@H](O)[C@H](Cc1ccccc1)NC(=O)OC(C)(C)C |  | >10 µM

For reference, 10 entries again:

SMILES | method | value
O/N=C1\C(=C\c2ccc3c(c2)OCCO3)CCCC1C(NO)c1ccc2c(c1)OCCO2 |  | >165 µM
Cc1cccc2c1OP(=O)(OC[C@@H]1C=C[C@H](n3cc(C)c(=O)[nH]c3=O)O1)OC2 |  | 32 µM
COC(=O)[C@@H]1CCCN1C(=O)CCc1ccc2c(c1)COP(=O)(OC[C@@H]1C=C[C@H](n3cc(C)c(=O)[nH]c3=O)O1)O2 |  | 182 µM
Cc1cc(S(N)(=O)=O)c(SCc2nc(N)nc(N(C)C)n2)cc1Cl |  | >200 µM
COCC(C)(C)OC(=O)N[C@@H](Cc1ccccc1)[C@H](O)CNC[C@@H](O)[C@H](Cc1ccccc1)NC(=O)OC(C)(C)C |  | >10 µM
Cc1cn(COC(CO)CN=[N+]=[N-])c(=O)[nH]c1=O |  | 0.05–100 µM
Cc1cn([C@H]2C[C@H](N=[N+]=[N-])[C@@H](CN3C(=S)c4ccccc4C3=S)O2)c(=O)[nH]c1=O |  | 19 µM
NC(N)=NS(=O)(=O)c1ccc(Nc2c3ccccc3nc3c(C(=O)NC(CO)(CO)CO)cccc23)cc1 |  | >3.3 µM
O=C1CSC(c2c(F)cccc2F)N1c1ccc(Br)cn1 | MTT | 45.8 µM
CN(C)[C@H]1C(=O)C(C(=O)NCN2CCN(C(=N)N=C(N)N)CC2)=C(O)[C@]2(O)C(=O)C3=C(O)c4c(O)cccc4[C@](C)(O)[C@@H]3C[C@H]12 |  | >0.3 µM

Blank or dashed fields: not listed here. Lines come from different laboratories, so protocols vary. CCn: concentration that lowers growth or viability of the cells by n%.